Results deposited as PubChem BioAssay AID1259414 (Drosophila RNAi Screening Center, 2018).

Test: 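Host factors increasing or decreasing Wolbachia levels in cultured fly cells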 (primary screen)
System: Drosophila JW18 cells infected with Wolbachia
Knock-down reagent: long dsRNA against Drosophila genes, 0.25 µg dsRNA per well of a 384-well plate
Timing: 5 days
Challenge: cells persistently infected with Wolbachia before knock-down; no added drug
Detection: 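Imaged fluorescence in situ signal for Wolbachia 23S rRNA per DAPI-counted host cell, given as a robust z-score within each plate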
Scale: Wolbachia per cell robust z: higher = more Wolbachia per host cell than the plate typical
Hit rule: 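Hit when robust z is 1.5 or more, or -1.5 or less, in at least two of three replicates; excludes dsRNAs with several or no targets, genes not expressed in JW18 and well A1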
In all, the deposit lists about 24,000 reagents; below is a random part of those with a known target gene and a result. Of all reagents, about 1,210 (5%) are marked active. 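Inactive calls also include excluded dsRNAs with several or no targets, genes unexpressed in JW18, and well A1, regardless of score.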 Entries without a mark were called inactive. Names joined by + are all predicted targets of the reagent.

predicted target,dsRNA,"Wolbachia per cell robust z, rep 1","Wolbachia per cell robust z, rep 2","Wolbachia per cell robust z, rep 3"
CG42671,DRSC09093,-0.0738,-1.65,-1.1
CG42671,DRSC10321,-1.13,-0.286,0.378
CG42671,DRSC29747,-1.17,-1.23,-0.121
CG42671,DRSC38615,2.11,0.436,2.46
alc,DRSC07062,0.904,0.251,-2.34
alc,DRSC21464,-0.49,0.575,-0.136
alc,DRSC23316,0.562,0.0141,0.109
CG6961 + CG18259,DRSC19799,-0.301,-1.06,0.157
CG6961 + CG18259,DRSC26849,0.241,0.27,0.391
eIF3b,DRSC06900,2.23,1.34,1.04
CG30394,DRSC04074,0.351,-0.199,0.417
CG30394,DRSC04260,-2.02,0.784,0.131
Uba3,DRSC06377,-0.167,0.506,-0.858
CycC,DRSC16619,2.29 (active),-0.114,2.7
amd,DRSC02608,0.757,0.387,0.617
amd,DRSC03483,0.663,-0.085,0.128
spd-2,DRSC09682,-1.05,-0.59,-1.59
spd-2,DRSC26762,0.216,-1.72,-0.681
CG12483,DRSC08278,-0.184,0.801,-0.109
Ctr1B,DRSC41331,-0.45,-2.98,-0.866
Gr85a,DRSC12760,0.958,0.191,-1.23
CG4631,DRSC02766,-1.92,0.445,0.901
CG4631,DRSC22194,0.602,0.731,1
CG10041,DRSC14179,-1.1,0.573,1.02
CG10041,DRSC29505,0.44,0.484,-0.576
loopin-1,DRSC06888,-0.681,-0.997,0.0432
loopin-1,DRSC24892,-2.25,0.716,-1.28
mlt,DRSC06120,0.502,0.279,0.163
mlt,DRSC27515,-1.1,0.751,-0.678
car,DRSC20316,-0.366,-0.408,-1.37
car,DRSC26230,1.39,0.381,0.859
Not1,DRSC06787,1.25,-0.559,0.644
Not1,DRSC06794,-1.71,-0.256,0.743
Es2,DRSC18663,-1.97,-0.337,-0.582
Es2,DRSC27829,-0.00039,0.835,0.968
CG43672 + CG43673,DRSC20108,0.0866,0.476,-2.23
CG7800,DRSC16315,1.29,0.366,-0.619
CG7800,DRSC27419,-1.15,-0.349,-4.32
CG15740,DRSC23079,-0.608,-0.0462,0.958
CG15740,DRSC28880,-0.587,0.0968,-0.866
CG15740,DRSC38996,0.275,-0.208,-1.59
SERCA,DRSC04600,-2.25,0.375,0.455
SERCA,DRSC26195,0.0647,0.965,2.37
grsm,DRSC14165,0.571,-0.22,0.464
grsm,DRSC14843,0.292,1.45,0.881
MESR6,DRSC10720,-2.75,0.235,0.621
MESR6,DRSC28344,0.47,0.801,0.0232
larp,DRSC14728,0.746,0.844,-0.0366
larp,DRSC16984,-3.64,0.304,-0.658
larp,DRSC21856,0.0795,0.463,0.794
larp,DRSC24427,0.521,-0.0342,0.508
larp,DRSC28325,-1.24,-0.239,-0.249
ND-20,DRSC20164,-4.68 (active),-10.1,-0.318
Rcc1,DRSC09684,0.0933,1.4,1.78
Rcc1,DRSC28981,-0.294,2.76,1.07
Tmx3,DRSC10471,-0.0815,-1.1,-0.794
Eaat1,DRSC03321,-3.78,-1.54,-0.366
lncRNA:CR9162,DRSC03151,-6.21,0.253,-5.43
Lcp65Ag3,DRSC10345,0.0643,-1.91,-0.0455
CG13308,DRSC09979,1.59,0.678,0.704
tgo,DRSC17077,-1.15 (active),-2.26,-4.92
tgo,DRSC29930,0.639,1.14,0.929
CG14355,DRSC14818,-2.69,-1.03,0.531
GstE1,DRSC07437,-0.865,-0.462,0.00238
GstE1,DRSC24708,1.1,0.0323,0.242
CG10911,DRSC06008,0.742,0.558,-1.63
CG4892,DRSC01937,-0.627,-1.17,-0.44
Edg84A,DRSC12594,-0.29,-1.42,-0.708

Look-ups from the entries so far.
Result of larp [DRSC21856] under “Wolbachia per cell robust z, rep 2”: 0.463
For “Wolbachia per cell robust z, rep 1”, SERCA [DRSC04600] has -2.25
Under “Wolbachia per cell robust z, rep 1”, CG6961 + CG18259 [DRSC26849] has 0.241
Under “Wolbachia per cell robust z, rep 2”, tgo [DRSC17077] has -2.26 (active)
